This is an account of results in ChEMBL document CHEMBL1149649, “Synthesis and anti-influenza activities of carboxyl alkoxyalkyl esters of 4-guanidino-Neu5Ac2en (zanamivir)” (Bioorg Med Chem Lett, 2007).

The structures appear in SMILES notation.

This test deals with Influenza A virus. The test can be described thus: Antiviral activity against influenza A/Jingfang/Fm1 (H1N1) infected in mouse assessed as survival of mouse at 100 mg/kg, ip bid after 2 hrs of viral infection for 5 days. The conditions noted are these: route intraperitoneal.

With `NC(=O)c1ncn([C@@H]2O[C@H](CO)[C@@H](O)[C@H]2O)n1` [RIBAVIRIN], the Survival worked out at 100%.
